Anti-infective test results gathered from many reports (values: NIAID ChemDB through PubChem).

All rows: whole-cell or culture tests; species: HIV-1

a–b is a range or a potency band. Blank or dashed fields: not listed here. Rows are shuffled and stem from different studies. ECn: concentration that inhibits the pathogen or its effect by n%.

smiles	strain	read by	measure	mutations	cell line	value
Cc1cc(F)ccc1OCCOc1ccc(-c2cnc(C)c([C@H](OC(C)(C)C)C(=O)O)c2N2CCC(C)(C)CC2)nc1	NL4-3	luminescence	EC50		MT-2	0.001 µM
CC(C)=CCOc1cc(NC(=S)c2ccsc2C)ccc1Cl	IIIB	cytopathic effect / XTT	EC50		MT-2	0.005 µM
Cc1ncc(-c2ccc(NCCOc3ccc(Cl)cc3F)nc2)c(N2CCC(C)(C)CC2)c1[C@H](OC(C)(C)C)C(=O)O	NL4-3	luminescence	EC50		MT-2	0.004 µM
Cc1nnc(C(=O)N2CCC3(C2)OCCn2c3nc(C(=O)NCc3ccc(F)cc3)c(O)c2=O)o1	NL4-3	luciferase / reporter gene	EC50		MT-2	0.01–0.1 µM
O=C1Nc2ccc(Cl)cc2[C@@](C#CC2CC2)(C(F)(F)F)O1	RES056	MTT	EC50		MT-4	0.2793 µM
CC(C)=CCN1C(C)Cn2c(=S)[nH]c3cc(Cl)cc(c32)S1(=O)=O		cytopathic effect / MTT	EC50		MT-4	>23 µM
Cc1ncc(-c2ccc(NCCOc3ccc(C#N)cc3)cn2)c(N2CCC(C)(C)CC2)c1[C@H](OC(C)(C)C)C(=O)O	NL4-3	luminescence	EC50		MT-2	0.005 µM
Cc1ccc2sn(/N=C/c3ccccc3O)c(=O)c2c1		MTT	EC50	Y181C	MT-4	>30 µM
N#Cc1ccc(Nc2nc(Oc3ccc(-c4ccc(C#N)cc4)c(F)c3F)c3sccc3n2)cc1	IIIB	MTT	EC50		MT-4	0.0135 µM
COc1ccnc2[nH]cc(C(=O)C(=O)N3C4CC3CN(C(=O)c3ccccc3)C4)c12	AC10	luciferase	EC50		TZM-bl	185 µM
O=C(NCc1ccc(F)cc1)c1nc2n(c(=O)c1O)CCOCC21CCN(C(=O)OCc2ccccc2)CC1	NL4-3	luciferase / reporter gene	EC50		MT-2	0.01–0.1 µM
N#Cc1ccc(Nc2nc(Oc3c(F)cc(-c4ccc(C#N)cc4)cc3F)c3sccc3n2)cc1	IIIB	MTT	EC50	F227L V106A	MT-4	>7.23 µM
Cc1ccc2sn(/N=C/c3ccccc3F)c(=O)c2c1		MTT	EC50		MT-4	>18 µM
Cc1cc(-c2ccc(C#N)cc2)cc(Cl)c1Oc1nc(Nc2ccc(C#N)cc2)nc2ccsc12	IIIB	MTT	EC50	K103N	MT-4	0.0304 µM
CC(C)=CCN1C(C)C(=O)Nc2ccc(Cl)cc2S1(=O)=O		cytopathic effect / MTT	EC50		MT-4	0.8 µM
CC(C)[C@H](NC(=O)[C@H](Cc1ccccc1)C[C@H](O)[C@H](Cc1ccccc1)NC(=O)OC(C)(C)C)C(=O)N[C@@H](Cc1ccccc1)C(=O)N1CCOCC1	LAV	RT activity	EC50		MT-2	0.05 µM
O=C(CCC(=O)n1cnc2ccccc21)n1cnc2ccccc21	IIIB	luciferase	EC50		TZM-bl	40 µM
CCOC(=O)CN(CC)S(=O)(=O)c1cc(Cl)ccc1N		cytopathic effect / MTT	EC50		MT-4	>200 µM
Cc1[nH]c(=S)n(Nc2cccc(Br)c2)c1-c1ccccc1	SO561945 (RT K103N Y181C)	cytopathic effect / MTT	EC50	RT-K103N Y181C	MT-4	5.77 µM
O=C(C(=O)N1CCN(C(=O)c2ccccc2)CC1)c1c[nH]c2ccccc12	JR-FL	single cycle	EC50		HeLa-CD4/CCR5	0.2 µM
CC(C)=CCOc1cc(NC(=S)c2ccoc2C)ccc1Cl	NL4-3 (RT V106I)	cytopathic effect / XTT	EC50	RT-V106I	CEM + CEM-SS	0.1 µM
CC(C)=CCOc1cc(NC(=S)c2ccoc2C)ccc1Cl	IIIB	syncytia	EC50	RT-Y181C	CEM	0.033 µM
CCc1[nH]c(=S)n(Nc2cccc(Cl)c2)c1-c1ccccc1	SO561945 (RT K103N Y181C)	cytopathic effect / MTT	EC50	RT-K103N Y181C	MT-4	>38.96 µM
Cc1ncc(-c2ccc(OCCC3=CCCCC3)cn2)c(N2CCC(C)(C)CC2)c1[C@H](OC(C)(C)C)C(=O)O	NL4-3	luminescence	EC50		MT-2	0.0029 µM
Cc1ccc(-c2c([C@H](OC(C)(C)C)C(=O)O)c(C)nc3ccccc23)cc1C			EC50		MT-4	0.039 µM
O=c1c2ccccc2sn1/N=C/c1ccc(Cl)cc1		MTT	EC50		MT-4	>26 µM
Clc1cc(CN2CCCNCCNCCCNCC2)cc(Cl)n1	IIIB X4	p24	EC50		MT-4	1.2 µM
COc1cc(/C=N/n2sc3ccc(C)cc3c2=O)ccc1O		MTT	EC50	EFV-resistant (K103 V179D P225H)	MT-4	>16 µM
CCN1c2ncc(CCOc3ccc(-c4csc(C(=O)O)c4)cc3C)cc2C(=O)N(C)c2cccnc21		p24	EC50	RT-K103N Y181C	C8166	0.01–0.05 µM
O=C(Cn1ccc(=O)[nH]c1=O)Nc1ccccn1	UG070	luciferase	EC50		TZM-bl	113 µM
CCc1[nH]c(=S)n(Nc2cccc(C)c2)c1-c1ccccc1	IIIB	cytopathic effect / MTT	EC50		MT-4	17.64 µM
COc1ccnc2[nH]cc(C(=O)C(=O)N3CCN(C(=O)c4ccccc4)C[C@H]3C)c12	6535	luciferase	EC50		TZM-bl	<0.002 µM
CS(=O)(=O)N1CCC2(CC1)OCCn1c2nc(C(=O)NCc2ccc(F)cc2)c(O)c1=O	NL4-3	luciferase / reporter gene	EC50		MT-2	0.001–0.01 µM
O=C1CNS(=O)(=O)c2cc(Cl)cc([N+](=O)[O-])c2N1		cytopathic effect / MTT	EC50		MT-4	>200 µM
Cc1occc1C(=S)Nc1ccc(Cl)c(/C=N/OC(C)(C)C)c1	IIIB	syncytia	EC50	RT-K103N	CEM	1.14 µM
Cc1cn(CC(=O)Nc2ccc(Br)cn2)c(=O)[nH]c1=O	IIIB	luciferase	EC50		TZM-bl	17 µM
Cc1ncc(-c2ccc(NCCOc3ccc(F)cc3)nc2)c(N2CCC(C)(C)CC2)c1[C@H](OC(C)(C)C)C(=O)O	NL4-3	luminescence	EC50		MT-2	0.002 µM
CCN1c2ncc(CCOc3ccc(-c4ccc(C(=O)O)cc4)cc3)cc2C(=O)N(C)c2cccnc21	IIIB	p24	EC50		C8166	<0.01 µM
O=C(Cn1ccc(=O)[nH]c1=O)Nc1ccc([N+](=O)[O-])cn1	IIIB	luciferase	EC50		TZM-bl	1 µM
O=C1Nc2ccc(Cl)cc2[C@@](C#CC2CC2)(C(F)(F)F)N1			EC90	RT-V108I		<0.012 µM
Cc1ccc2sn(/N=C/c3ccccc3Cl)c(=O)c2c1		MTT	EC50	Y181C	MT-4	>100 µM
CC(C)OC(=O)c1cc(NC(=S)OC(C)C)ccc1Cl	IIIB	syncytia	EC50	RT-Y188H	CEM	2.1 µM
O=c1c2ccccc2sn1/N=C/c1ccc([N+](=O)[O-])cc1[N+](=O)[O-]		MTT	EC50		MT-4	>100 µM
S=c1[nH]c(-c2ccccc2)c(-c2ccccc2)n1Nc1cccc(Cl)c1	NL4-3	cytopathic effect / MTT	EC50		MT-4	>36.31 µM
CCN1c2ncc(CCOc3ccc(-c4ccc(C(=O)O)cc4)cc3)cc2C(=O)N(C)c2ccc(Cl)nc21	IIIB	p24	EC50		C8166	<0.01 µM
Cc1ccc(OCCNc2ccc(-c3cnc(C)c([C@H](OC(C)(C)C)C(=O)O)c3N3CCC(C)(C)CC3)nc2)c(Cl)c1	NL4-3	luminescence	EC50		MT-2	0.0013 µM
Cc1cccc(CN2C(C)C(=O)Nc3ccc(Cl)cc3S2(=O)=O)c1		cytopathic effect / MTT	EC50		MT-4	0.13 µM
O=C1Nc2ccc(F)c(F)c2[C@@](/C=C/C2CC2)(C(F)(F)F)N1			EC90	RT-P225H		<0.012 µM
CC1=C(C(=O)Nc2ccc(Cl)c(C(=O)OC(C)C)c2)SCCO1	IIIB	syncytia	EC50	RT-V106A	CEM	>61 µM
O=c1c2ccccc2sn1/N=C/c1ccc(O)cc1		MTT	EC50	Y181C	MT-4	>18 µM
O=C(NCc1ccc(F)cc1)c1nc2n(c(=O)c1O)CCOC21CCN(C(=O)OCc2ccccc2)C1	NL4-3	luciferase / reporter gene	EC50		MT-2	0.001–0.01 µM
O=c1c2ccccc2sn1/N=C/c1ccc(O)c(O)c1		MTT	EC50	EFV-resistant (K103 V179D P225H)	MT-4	>44 µM
CCN1c2ncc(CCOc3ccc(C(=O)Nc4cccnc4C)cc3C)cc2C(=O)N(C)c2cccnc21		p24	EC50	RT-K103N Y181C	C8166	<0.01 µM
Cc1nnc(C(=O)N2CCC3(C2)OCCn2c3nc(C(=O)NCc3ccc(F)cc3-n3ncnc3C)c(O)c2=O)o1	NL4-3	luciferase / reporter gene	EC50		MT-2	≥0.1 µM